Test: Peptide immobilization on glass surface, covalent versus non-covalent (fluorescence of FITC-labeled peptide)
Conditions: six spots, 10 μL

**Q.** Which “average mean fluorescence intensity (MFI) of surface bound peptide” value (covalent immobilization (APTES/glutaraldehyde)) does the source give for “FITC-WxEAAYQkFLA [FITC-labeled peptide, FITC-labeled 11-mer representative peptide; k is D-lysine and x is D-norleucine]” here?
**A.** 23927±4902

**Q.** What about the “average mean fluorescence intensity (MFI) of surface bound peptide” value (non-covalent immobilization) of the same substance?
**A.** 19708±3299
